# PubChem BioAssay AID624099 – ICCB-Longwood – 2012
# Screen: 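Knock-downs relieving repression by E2 of an HPV18 LCR luciferase reporter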 (primary screen)
# Cell system: human C33A cervical carcinoma cells (HPV-negative) stably expressing BPV1 E2 and an HPV18 LCR luciferase reporter
# Knock-down reagent: siRNA pool against human genes, 40 nM
# Timing: 72 h
# Measurement: 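HPV18 LCR reporter light per well, converted to plate-wise z-scores that exclude control wells, and averaged over triplicate plates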
# Reading the numbers: mean z-score and z-score: higher = stronger reporter signal, weaker E2 silencing
# Rule for the call: 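Mean z ≥ 2 together with z ≥ 2 in two or more of the three replicates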
# Shown is an unselected part of about 21,000 reagents. 497 of them (2.4%) count as active. 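Higher z means weaker E2 silencing; only reporter increases were scored, and knock-downs that hurt cell survival may mask genuine repressor factors.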 Entries without a mark were called inactive. Reagent sequences are not shown.
gene symbol,PubChem SID,mean z-score,"z-score, replicate A","z-score, replicate B","z-score, replicate C"
ICE2,SID134318546,-0.9,-1.24,-0.69,-0.77
AMZ1,SID134326304,0.74,0.56,1.11,0.56
CWF19L2,SID134320653,0.54,0.76,0.73,0.14
EPHB1,SID56478501,-2.25,-1.62,-2.15,-2.98
CLDN20,SID134329765,0.16,0.31,-0.13,0.32
HTR1F,SID134311076,-0.24,-0.15,-0.26,-0.33
ASB6,SID134317584,0.89,0.74,1.1,0.83
MEX3B,SID134325357,1.08,0.78,1.49,0.95
LOC133185 (retired record),SID134325870,0.19,0.02,0.26,0.29
ECEL1,SID134311286,-0.13,0.06,-0.47,0
RPS8,SID134315498,-1.82,-1.84,-1.95,-1.67
SERPINE2,SID134316996,0.4,0.58,0.26,0.35
LINC01443,SID134328854,1.32,1.13,1.24,1.58
YES1,SID56478562,-0.53,-0.45,-0.84,-0.29
LRG1,SID134319230,2.19 (active),2.26,1.92,2.38
TRIM61,SID134327440,0.03,-0.02,0.33,-0.23
EDF1,SID134314421,-1.38,-1.27,-1.19,-1.69
PC,SID134313791,0.54,0.6,0.59,0.43
CAPN15,SID134311459,3.21 (active),3.71,2.9,3.04
RERGL,SID134314487,1.15,1.65,0.96,0.84
FBXL14,SID134319746,1.79,2,1.82,1.55
ZNF251,SID134326396,1.95,2,1.51,2.33
SOX11,SID134321314,0.82,0.87,0.62,0.96

Ordered by “z-score, replicate C” (highest first): 2 of the entries above
gene symbol,PubChem SID,mean z-score,"z-score, replicate A","z-score, replicate B","z-score, replicate C"
CAPN15,SID134311459,3.21 (active),3.71,2.9,3.04
PC,SID134313791,0.54,0.6,0.59,0.43
